Data on two sequences can be found in paper PMC8227227 (Viruses, 2021).

For the assay, the target named is T1, HIV-1 PR (Human immunodeficiency virus type 1 group M subtype B, UniProt P04585).
T1 construct: assayed as substrates of the HIV-1 protease (PR)
Briefly: Enzyme assay with synthetic oligopeptide substrates (RP-HPLC). To be noted: Table 3; kcat/Km (from Km and kcat) of mutant compared with wild-type. The class given is biochemical, human immunodeficiency virus type 1 (HIV-1).

On to “RKIVICFGCGKR [peptide 16, revertant NC-1 cleavage site peptide […]]”, for which the “kcat/Km Fold-Change” value turned out to be 24.25. As to “KIVKICFGCGKR [peptide 17, revertant NC-1 cleavage site peptide […]]”, the “kcat/Km Fold-Change” value was 8.75.
